Reference: the supplement of paper PMC9931576
Human monoclonal antibodies against the spike receptor-binding domain (heavy:light variable regions). IC50 against pseudoviruses bearing the spike of naturally observed variants; lower = stronger; >10 µg/ml means not reached at the top dose. No active / inactive call. The stated detection limit is 0.0005 µg/ml; values near or below 0.001 µg/ml lie at the floor of the assay.

B1: BD56-1687 (protein)
chain 1: EAQLVESGGGLVQPGRSLRLSCTASGFTFGDYAMQWVRQAPGKGLEWVSGISWDSATIGYADSVKARFTISRDNAKNSLNLQMNSLTTEDTAFYYCARVYCGDNCYSIIWAGDAFDIWGQGTMVTVSA
chain 2: QSVLTQPPSVSGAPGQRVTISCTGTSSNIGTIYDVHWYQQVPGTAPKLLIYGDNNRPSGVPDRFSGSKSGTSASLAIAGLQAEDEANYYCQSYDTSLSGVVFGGGTKLTVL
B2: BD56-1689 (protein)
chain 1: QVQLVQSGPEVKKPGASVKVSCKASGYTFITYGINWVRQAPGQGLEWMGWINPYSGNTNYAQKVQGRVTMTTDTSTNTAYMEMRSLRYDDTAVYFCARASGYTGYGSNWYFHLWGRGTLVTVSS
chain 2: QSVLTQPPSVSGAPGQRVTISCTGSSSNIGAGYDVHWYQQLPGTAPKLLIYANSDRPSGVPDRFSGSKSGTSASLAITGLQTEDEADYYCQSYDSSLSGSVFGGGTKLTVL
B3: COV2-2841 (protein)
chain 1: QVQLQESGPGLVKPSETLSLTCTVSGGSISSYYWSWIRQPPGKGLEWIGHIYYTGSSYYNPSLKSRVTISLDTSKNQFSLKLNSVTAADTAVYYCARLRWLRGGIDFWGQGTLVIVSS
chain 2: NLMLTQPHSVSESPGKTVTISCTGSSGSIASNYVQWYQQRPGSAPTTVIYEDNQRPSGVPDRFSGSIDSSSNSASLTISGLKTEDEADYYCQSYDSNNQVFGGGTKLTVL
B4: BD56-1700 (protein)
chain 1: EVQLVESGGGLVQPGGSLRLSCAASGFTFSDYDMHWLRQGTGKGLEWVSTIGTGGDTYYSGSVKGRFSMSRENAKNSLYLQMNSLRAGDTAVYYCARVKYDSSGYKWHLDYWGQGTLVSVSS
chain 2: DIQMTQSPSSLSASLGDRVTITCRASQSISRYLNWYQQKPGKGPNLLIYDASSLQRGVPSRFSGSGSGTDFTLTISSLQPEDFATYYCQQSYTNPLYTFGQGTKLEIK
B5: BD56-1702 (protein)
chain 1: EVQLVQSGAEVKKPGESLKISCKGSGYSFTSYWIGWVRQMPGKGLEWMGIIYPGDSDTRYSPSFQGQVTISADKSISTAYLQWSSLKASDTAMYFCARHSSDGVHLRSLRDYFFMDVWGQGTTVTVSS
chain 2: DIQMTQSPSSLSASVGDRVTITCRASQSISVYVNWYQQKPGKAPKLLIYAASSLQSGVPSRFSGSGSGTDFTLTISSLQPEDFATYYCQQSYSTRQLTFGGGTNVEIK
B6: BD56-1705 (protein)
chain 1: QIQLVQSGAEVKKPGASVKVSCKASGYIFVSYGLHWVRQAPGQGLEWMGWISPYNGDTNYVQKLQGRVTMTTDTSTSTAYMELRSLRSDDTAVYYCAIRPGYTSSWYDAFEIWGQGTLVTVSS
chain 2: DIQLTQSPSFLSASVGDRVTITCRASQGISSFLAWYQQKPGKAPKLLIYAASTLQSGVPSRFSGSGSGTEFTLTISSLQPEDFATYYCQQLNSYPFTFGPGTKVDIK
B7: BD56-1706 (protein)
chain 1: QVQLVQSGAEVKKPGASVKVSCKASGYTFTGYSLNWVRQAPGQGLEWMGWMNPNSGGSNSAQKFQGRVTMTRDTSISTAYMELSRLTSDDTAVYYCARESCSGTSCSDYWGQGTRVTVSS
chain 2: SYVLTQPPSVSVAPGQTARITCGGDNIGSKSVHWYQQKPGQAPVLVVYDDSDRPSGIPERFSGSNSGNSATLTISRVEAGDEADYYCQVWDGSSDDFYIFGTGTKVTVL
B8: BD56-1709 (protein)
chain 1: EVQLVESGGRLVQPGRSLRLSCAASGFTFEDYAMHWVRQAPGKGLEWVSGISWNGGVIGYADSVKGRLIISRDNAKNSLHLHMQSLKTEDTAFYYCAKDMGDYGDLFHYTMDVWGQGTTVTVSS
chain 2: QSALTQPASVSGSPGQSITISCTGTDSDVGGYNYVSWFQHRPGKAPQLMIYDVSKRPSGVSNRFSASKSGNTASLTISGLQAEDEADYYCSSYTSTSTVLFGGGTKLTVL
B9: COV2-2103 (protein)
chain 1: EVQLVESGGGLVQPGGSLRLSCAASGFTFSRHWMTWVRQAPGKGLEWVANIKQDGSEKYYVDSVKGRLTISRDNAKNSLYLQMNSLRAEDTAVYYCARLGFYYGGADYWGQGTLVTVSS
chain 2: NFMLTQPHSVSESPGKTVTISCTGSSGSIASNYVQWYQQRPGSAPTTVISEDNQRPSGVPDRFSGSIDSSSNSASLTISGLKTEDEADYYCQSYDGINRAWVFGGGTKLTVL
B10: BD56-1711 (protein)
chain 1: QVQLVQSGAEVKKPGSSVKVSCKASGGTFTSYTINWVRQAPGQGLEWMGSIIPILGITNYAQKFQGRVTITADKTTSTASMELSTLRSDDTAVYYCARGRGYSGYGAAMYCDYWGQGTLVTVSS
chain 2: QSVLTQPPSVSGAPGQRVTISCTGTNSNIGAGYDVHWYQQLPGTAPKLLIYGNTNRPSGVPDRFSGSKSGTSASLAITGLQAEDEADYYCQSYDSGLSAALVFGTGTQVTVL
B11: BD56-1713 (protein)
chain 1: EVQLVESGGGLAQPGGSLRLSCAASGFTFSRYDMHWVRQSTAKGLEWVSAIGTTGDTYYLDSVKGRFTISRENAKNSLYLQMNSLRVGDTAVYYCARVPIYDSQTYYEARDSWYFDLWGRGTLVTVSS
chain 2: DIQMTQSPSSLSASVGDRVTITCRASQTIRTYLNWYQQKPGKAPKLLIYAASSLQTGVPSRFSGSGSGTDFTLTITSLQPEDFATYYCQQSYVMPPITFGQGTKVEIK
B12: BD56-1719 (protein)
chain 1: EVQLVESGGGLVQPGRSLRLSCAASGFSFDDNGMHWVRQAPGKGLEWVSGINWNSDSVAYADSVKGRFTISRDNAKNSLFLQMNSLRPDDTAWYYCVKDSRAGFGDYFDFWGQGTLVTVSS
chain 2: SYVLTQPPSVSVAPGKTARITCGGNNIGSKSVHWYRQKPGQAPVLVISYDTDRPSGIPERFSGSNSGNTATLTISRVEAGDEADYYCQVWGGSSDHPYVFGTGTKVTVL

target: SARS-CoV-2 Omicron BA.1 spike pseudovirus; assay: pseudovirus neutralization IC50; higher = weaker neutralization
Method: (§1)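 Single-round VSV luciferase pseudovirus mixed with antibody dilutions for 1 h and put on Huh-7 cells for about a day; IC50 from the dose curve.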

First: B1
Second: B2
The “pseudovirus neutralization IC50” value of the first is 1.6-fold lower: 0.82 µg/mL for the first, 1.28 µg/mL for the second.

B3 and B4 cannot be ordered by “pseudovirus neutralization IC50” value: over 10 µg/mL for the first, over 10 µg/mL for the second.

First: B5
Second: B6
The “pseudovirus neutralization IC50” value of the first is higher: over 10 µg/mL for the first, 0.667 µg/mL for the second.

First: B7
Second: B8
The “pseudovirus neutralization IC50” value of the first is 150-fold higher: 5.78 µg/mL for the first, 0.0385 µg/mL for the second.

First: B9
Second: B10
The “pseudovirus neutralization IC50” value of the first is higher: over 10 µg/mL for the first, 0.0208 µg/mL for the second.

B11 and B12 cannot be ordered by “pseudovirus neutralization IC50” value: over 10 µg/mL for the first, over 10 µg/mL for the second.

target: SARS-CoV-2 Omicron BA.2 spike pseudovirus; assay: as above
Method: as §1

Compared with B1, B2 is 1.7-fold higher in “pseudovirus neutralization IC50” value: 0.66 µg/mL for the first, 1.11 µg/mL for the second.

B3 and B4 cannot be ordered by “pseudovirus neutralization IC50” value: over 10 µg/mL for the first, over 10 µg/mL for the second.

Going from B5 to B6, the “pseudovirus neutralization IC50” value falls from over 10 µg/mL to 0.385 µg/mL.

Going from B7 to B8, the “pseudovirus neutralization IC50” value falls from 2.77 µg/mL to 0.0161 µg/mL (170-fold).

Going from B9 to B10, the “pseudovirus neutralization IC50” value falls from over 10 µg/mL to 0.0157 µg/mL.

B11 and B12 cannot be ordered by “pseudovirus neutralization IC50” value: over 10 µg/mL for the first, over 10 µg/mL for the second.

target: SARS-CoV-2 Omicron BA.2.75 spike pseudovirus; assay: as above
Method: as §1

B1 and B2 are within 1.5-fold of each other in “pseudovirus neutralization IC50” value: 1.58 µg/mL for the first, 1.62 µg/mL for the second.

B3 and B4 cannot be ordered by “pseudovirus neutralization IC50” value: over 10 µg/mL for the first, over 10 µg/mL for the second.

Compared with B5, B6 is lower in “pseudovirus neutralization IC50” value: over 10 µg/mL for the first, 0.671 µg/mL for the second.

First: B7
Second: B8
The “pseudovirus neutralization IC50” value of the first is 79-fold higher: 3.93 µg/mL for the first, 0.0498 µg/mL for the second.

Going from B9 to B10, the “pseudovirus neutralization IC50” value falls from over 10 µg/mL to 0.0468 µg/mL.

B11 and B12 cannot be ordered by “pseudovirus neutralization IC50” value: over 10 µg/mL for the first, over 10 µg/mL for the second.

target: SARS-CoV-2 Omicron BA.5 spike pseudovirus; assay: as above
Method: as §1

Compared with B1, B2 is higher in “pseudovirus neutralization IC50” value: 1.71 µg/mL for the first, over 10 µg/mL for the second.

B3 and B4 cannot be ordered by “pseudovirus neutralization IC50” value: over 10 µg/mL for the first, over 10 µg/mL for the second.

B5 and B6 cannot be ordered by “pseudovirus neutralization IC50” value: over 10 µg/mL for the first, over 10 µg/mL for the second.

Going from B7 to B8, the “pseudovirus neutralization IC50” value falls from 3.01 µg/mL to 1.57 µg/mL (1.9-fold).

First: B9
Second: B10
The “pseudovirus neutralization IC50” value of the first is higher: over 10 µg/mL for the first, 2.22 µg/mL for the second.

B11 and B12 cannot be ordered by “pseudovirus neutralization IC50” value: over 10 µg/mL for the first, over 10 µg/mL for the second.

target: SARS-CoV-2 Omicron BQ.1.1 spike pseudovirus; assay: as above
Method: as §1

Compared with B1, B2 is higher in “pseudovirus neutralization IC50” value: 1.76 µg/mL for the first, over 10 µg/mL for the second.

B3 and B4 cannot be ordered by “pseudovirus neutralization IC50” value: over 10 µg/mL for the first, over 10 µg/mL for the second.

B5 and B6 cannot be ordered by “pseudovirus neutralization IC50” value: over 10 µg/mL for the first, over 10 µg/mL for the second.

B7 and B8 cannot be ordered by “pseudovirus neutralization IC50” value: over 10 µg/mL for the first, over 10 µg/mL for the second.

B9 and B10 cannot be ordered by “pseudovirus neutralization IC50” value: over 10 µg/mL for the first, over 10 µg/mL for the second.

B11 and B12 cannot be ordered by “pseudovirus neutralization IC50” value: over 10 µg/mL for the first, over 10 µg/mL for the second.

target: SARS-CoV-2 Omicron XBB spike pseudovirus; assay: as above
Method: as §1

Going from B1 to B2, the “pseudovirus neutralization IC50” value rises from 2.4 µg/mL to over 10 µg/mL.

B3 and B4 cannot be ordered by “pseudovirus neutralization IC50” value: over 10 µg/mL for the first, over 10 µg/mL for the second.

B5 and B6 cannot be ordered by “pseudovirus neutralization IC50” value: over 10 µg/mL for the first, over 10 µg/mL for the second.

Compared with B7, B8 is higher in “pseudovirus neutralization IC50” value: 3.93 µg/mL for the first, over 10 µg/mL for the second.

Compared with B9, B10 is lower in “pseudovirus neutralization IC50” value: over 10 µg/mL for the first, 1.59 µg/mL for the second.

B11 and B12 cannot be ordered by “pseudovirus neutralization IC50” value: over 10 µg/mL for the first, over 10 µg/mL for the second.

target: SARS-CoV-2 early D614G spike pseudovirus; assay: as above
Method: as §1

First: B1
Second: B2
The “pseudovirus neutralization IC50” value of the first is 3.3-fold lower: 0.224 µg/mL for the first, 0.74 µg/mL for the second.

Going from B3 to B4, the “pseudovirus neutralization IC50” value rises from 0.966 µg/mL to over 10 µg/mL.

B5 and B6 cannot be ordered by “pseudovirus neutralization IC50” value: over 10 µg/mL for the first, over 10 µg/mL for the second.

First: B7
Second: B8
The “pseudovirus neutralization IC50” value of the first is higher: over 10 µg/mL for the first, 0.0277 µg/mL for the second.

Compared with B9, B10 is 13-fold lower in “pseudovirus neutralization IC50” value: 0.584 µg/mL for the first, 0.0443 µg/mL for the second.

B11 and B12 cannot be ordered by “pseudovirus neutralization IC50” value: over 10 µg/mL for the first, over 10 µg/mL for the second.
